Data on three compounds can be found in patent US20180016619A1, “Rapid Detection of Microbial Resistance to Lactam Antibiotics by LC-MS/MS” (DH Technologies Development Pte. Ltd., priority 2015, published 2018).

Each structure is given as a SMILES string.

This data set deals with resistant strain of E. coli bacteria. Briefly: LC-MS/MS detection of antibiotic hydrolysis after incubation with a resistant E. coli strain. It is filed as cell-based. Conditions: LC-MS/MS MRM; for hydrolysis of parent antibiotic drug (chromatogram): Clinical E. coli isolates, resistant strain, incubated with a mixture of ampicillin, piperacillin and cefotaxime.

As for `CCN1CCN(C(=O)N[C@@H](C(=O)N[C@@H]2C(=O)N3[C@@H]2SC(C)(C)[C@@H]3C(=O)O)c2ccccc2)C(=O)C1=O` [piperacillin], the “hydrolysis of parent antibiotic drug (chromatogram)” value is recorded as “hydrolyses both antibiotic drugs”.

For the compound `CC1(C)S[C@@H]2[C@H](NC(=O)[C@H](N)c3ccccc3)C(=O)N2[C@H]1C(=O)O` [ampicillin], the “hydrolysis of parent antibiotic drug (chromatogram)” value is “hydrolyses both antibiotic drugs”.

As for `CO/N=C(\C(=O)N[C@@H]1C(=O)N2C(C(=O)O)=C(COC(C)=O)CS[C@H]12)c1csc(N)n1` [cefotaxime], the “presence of parent drug in chromatogram” value (resistant strain of E. coli expressing an extended spectrum beta-lactamase) is “disappearance”.
